Compound potency records, mixed from different reports. Data source: NIAID ChemDB in PubChem.

A number after MIC or MFC names an inhibition level or a share of isolates. ECn is the concentration giving n% inhibition of infection, replication or growth. An empty or dashed field is not shown. ICn is the concentration giving n% inhibition. Lines come from different laboratories, so protocols vary. Percent inhibition refers to the dose given; in toxicity tests it is the harm to the cells.

{"structure": "O=S(=O)(O)c1cc(O)c2c(O)cc(S(=O)(=O)O)cc2c1", "test": "culture", "agent": "Adenovirus", "strain or isolate": "TYPE 3", "cells": "Human embryonic lung cells", "read by": "cytopathic effect", "read-out": "inhibition", "dose": "5 µg/mL", "result": "0%"}
{"structure": "CCOC(=O)c1c(C)nc(NCCCCNc2ccnc3cc(Cl)ccc23)nc1-c1ccc(F)cc1", "test": "culture", "agent": "Cryptococcus gattii", "strain or isolate": "1913 ER", "read-out": "MIC99", "result": "8 µg/mL"}
{"structure": "C=CCc1ccc(OC)c(OC)c1", "test": "culture", "agent": "Candida tropicalis", "strain or isolate": "2804", "read by": "turbidity", "read-out": "MIC90", "result": "345 µg/mL"}
{"structure": "Oc1ccccc1N=Cc1ccc2c(c1)OCO2", "test": "culture", "agent": "Cryptococcus gattii", "strain or isolate": "ATCC 24065", "read-out": "MIC99", "result": "8 µg/mL"}
{"structure": "CCC(CC)O[C@@H]1C=C(C(=O)O)C[C@H](N)[C@H]1NC(C)=O", "test": "culture", "agent": "Influenza A virus", "strain or isolate": "H1N1 A/NWS/33", "cells": "MDCK", "read-out": "EC50", "result": ">100 µM"}
{"structure": "CCOC(=O)c1ccc(OCCC2CCN(c3ccc(C)nn3)CC2)cc1", "test": "culture", "agent": "Rhinovirus", "strain or isolate": "Baylor 1 (ICAM-1 receptor group 45)", "cells": "KB", "read by": "neutral red", "read-out": "EC50", "result": "0.271 µM"}
{"structure": "Cc1nc(NCCCCNc2ccnc3cc(Cl)ccc23)nc(-c2ccccc2[N+](=O)[O-])c1C(=O)OC(C)C", "test": "culture", "agent": "Cryptococcus neoformans", "strain or isolate": "27JF", "read-out": "MIC99", "result": "4 µg/mL"}
{"structure": "NCCS(=O)(=O)O", "test": "culture", "agent": "Herpes simplex virus", "cells": "Human amnion AV3 cells", "read by": "cytopathic effect", "read-out": "inhibition", "dose": "50 µg/mL", "result": "0%"}
{"structure": "Cc1ccc(N2CCN(c3cncc(-c4ccccc4)n3)CC2)cc1", "test": "target", "agent": "Cytomegalovirus", "target": "UL97 kinase", "read-out": "IC50", "result": "<100 µM"}
{"structure": "Cc1cc(-c2ccc(N=Nc3c(N)c(S(=O)(=O)O)cc4cc(S(=O)(=O)O)ccc34)c(C)c2)ccc1N=Nc1c(N)ccc2cc(S(=O)(=O)O)ccc12", "test": "culture", "agent": "Herpes simplex virus", "cells": "Human amnion AV3 cells", "read by": "cytopathic effect", "read-out": "inhibition", "dose": "50 µg/mL", "result": "100%"}
{"structure": "COc1ccccc1N1CCN(c2cncc(-c3ccc(F)c(Cl)c3)n2)CC1", "test": "target", "agent": "Cytomegalovirus", "target": "UL97 kinase", "read-out": "inhibition", "dose": "10 µM", "result": ">15%"}
{"structure": "Nc1ccc(S(=O)(=O)[O-])c2c(S(=O)(=O)[O-])ccc(O)c12", "test": "culture", "agent": "Adenovirus", "strain or isolate": "TYPE 3", "cells": "Human amnion AV3 cells", "read by": "cytopathic effect", "read-out": "inhibition", "dose": "5 µg/mL", "result": "20%"}
{"structure": "Oc1cccc(C=Nc2ccccc2O)c1", "test": "culture", "agent": "Cryptococcus neoformans", "strain or isolate": "ATCC 62066", "read-out": "MIC99", "result": "1.4 µg/mL"}
{"structure": "COc1ccc(N2CCN(c3cncc(-c4ccccc4Oc4ccccc4)n3)CC2)cc1OC", "test": "target", "agent": "Cytomegalovirus", "target": "UL97 kinase", "read-out": "IC50", "result": "<100 µM"}
{"structure": "O=C(Nc1cc(S(=O)(=O)[O-])cc2cc(S(=O)(=O)[O-])ccc12)c1ccccc1", "test": "culture", "agent": "Herpes simplex virus", "cells": "Human amnion AV3 cells", "read by": "cytopathic effect", "read-out": "inhibition", "dose": "5 µg/mL", "result": "0%"}
{"structure": "CN(C)c1ccc(-c2cncc(N3CCN(c4cccc(C(F)(F)F)c4)CC3)n2)cc1", "test": "target", "agent": "Cytomegalovirus", "target": "UL97 kinase", "read-out": "inhibition", "dose": "10 µM", "result": ">15%"}
{"structure": "Fc1ccc(N2CCCCC2)c(NC(=S)c2ccncc2)c1", "test": "host protein", "target": "STK33", "read by": "kinase activity", "read-out": "inhibition", "dose": "10 µM", "result": "14%"}
{"structure": "Nc1ccc2cc(S(=O)(=O)O)cc(S(=O)(=O)O)c2c1", "test": "culture", "agent": "Adenovirus", "strain or isolate": "TYPE 3", "cells": "Human embryonic lung cells", "read by": "cytopathic effect", "read-out": "inhibition", "dose": "50 µg/mL", "result": "0%"}
{"structure": "COc1cc(-c2cncc(N3CCN(c4cccc5[nH]ccc45)CC3)n2)cc(OC)c1OC", "test": "target", "agent": "Cytomegalovirus", "target": "UL97 kinase", "read-out": "IC50", "result": "<100 µM"}

The first 3 rows once more:

structure,test,agent,strain or isolate,cells,target,read by,read-out,dose,result
O=S(=O)(O)c1cc(O)c2c(O)cc(S(=O)(=O)O)cc2c1,culture,Adenovirus,TYPE 3,Human embryonic lung cells,,cytopathic effect,inhibition,5 µg/mL,0%
CCOC(=O)c1c(C)nc(NCCCCNc2ccnc3cc(Cl)ccc23)nc1-c1ccc(F)cc1,culture,Cryptococcus gattii,1913 ER,,,,MIC99,,8 µg/mL
C=CCc1ccc(OC)c(OC)c1,culture,Candida tropicalis,2804,,,turbidity,MIC90,,345 µg/mL